Patent publication US6369057B1, “Quinoxalines, processes for their preparation and their use” (Aventis Pharma Deutschland GmbH, priority 1991, dated 2002)

Assays:
[1] = molecular target: HIV reverse transcriptase (RT) (Human immunodeficiency virus type 1 group M subtype B, UniProt P03366); assay: Assay for HIV reverse transcriptase inhibition (scintillation proximity assay); conditions: RT from HIV cloned in E. coli; SPA, 60 minutes (37° C.)
Procedure: Assay of the Substances for HIV Reverse Transcriptase Inhibition
The activity of reverse transcriptase (RT) was determined with the aid of a scintillation proximity assay (SPA).
The reagent kit for the RT-SPA was obtained from Amersham/Buchler (Braunschweig).
The enzyme RT (from HIV cloned in E. coli) originated from HT-Biotechnology Ltd, Cambridge, UK.
The assay was carried out using the manufacturer's (Amersham) protocol manual, with the following modifications: bovine serum albumin was added to the assay buffer to give an end concentration of 0.5 mg/ml the assay was carried out in Eppendorf reaction vessels, using 100 μl volume per batch the manufacturer's RT concentrate (5000 U/ml) was diluted in Tris-HCl buffer 20 mM; pH 7.2; 30% of glycerol, to an activity of 15 U per ml the incubation time for the mixtures was 60 minutes (37° C.) after stopping the reaction and “developing” with the bead suspension, 130 μl of mixture were transferred to 4.5 ml of Tris-HCl buffer, 10 mM; pH 7.4; 0.15 M NaCl, and the tritium activity was measured by means of a [formula]-counter.
For a pre-assay for inhibitory activity, the substances were dissolved in DMSO (stock solution c=1 mg/ml), and tested as a 10^−1, 10^−2, 10^−3, etc., dilution in DMSO. […]
The concentration corresponding to a 50% enzyme inhibition was determined from a plot of RT activity versus log Clnh.

HIV = assay: Test of preparations against HIV in cell culture (T-cell culture assay); assay type: cell-based; conditions: lowest concentration where no giant cells were observed; HIV-infected lymphocytes from donor blood, 3 days at 37° C.
Procedure: Test of Preparations Against HIV in Cell Culture
Complete medium additionally contains 20% fetal calf serum and 40 IU/ml recombinant interleukin 2.
Lymphocytes which have been isolated from fresh donor blood by means of Ficoll gradient centrifugation are cultured for 36 hours in complete medium with an addition of 2 μg/ml phytohemagglutinin (Wellcome) at 37° C. under 5% of CO2. After 10% of DMSO has been added, the cells are frozen at a density of 5 [formula]10^6 and stored in liquid nitrogen. For the test, the cells are defrosted, washed in RPMI medium and cultured for 3-4 days in the complete medium.
The test preparations were dissolved in DMSO at a concentration of 16.7 mg/ml and diluted in complete medium to 1 mg/ml.
0.4 ml of medium was introduced into 24-multiwell dishes. 0.1 ml of the dissolved preparation was added to the upper row of the dish, and, by transferring 0.1 ml portions, a geometric dilution series was established. […] The titer of these culture supernatants was determined by end-point titration as 1-5 [formula]10^6 infectious units/ml. […]
The infected cell cultures were examined under the microscope for the presence of giant cells, which indicate active virus multiplication in the culture. The lowest concentration of preparation where no giant cells were observed was determined as inhibitory concentration against HIV. […]

SMILES | Reverse Transcriptase Assay IC50 [1] | T-cell culture assay MIC (HIV)
CC(C)=CCN1c2cc(Cl)ccc2NC(=O)C1C(C)C (stereo not drawn) | 0.1 to 1 µg/mL | <2.0 µg/mL
C=C(C)OC(=O)N1c2cc(Cl)ccc2NC(=S)C1CCCC (stereo not drawn) | 0.1 to 1 µg/mL | 
